Compound potency records, mixed from different reports. Data source: NIAID ChemDB in PubChem.

Shared fields: whole-cell or culture tests; agent: HIV-1; read-out: EC50

Conditions beyond the fields shown may differ between rows. Blank or dashed fields: not listed here. ECn is the concentration giving n% inhibition of infection, replication or growth.

smiles | setting | cell line | changes | read by | strain or isolate | result
CCCc1cc(=O)oc2c3c(c4c(c12)OC(C)(C)C=C4)O[C@H](C)[C@@H](C)[C@@H]3O | - | CEM + CEM-SS | RT-Y188C | XTT | NL4-3 | 1.7 µM
C1CNCCNCCCN(CCCN2CCCNCCNCCCNCC2)CCNC1 | - | MT-4 | - | cytopathic effect / MTS | NL4-3 | 0.49 µM
Cc1cc(Cl)cc(S(=O)(=O)c2cccc(N)c2C#N)c1 | - | HeLa + HELA CD4+ | RT-P236L | β-galactosidase | - | 0.011 µM
C/C=C/CSc1cc(NC(=S)c2ccsc2C)ccc1Cl | - | CEM + CEM-SS | - | cytopathic effect / XTT | 4XAZT+Y181C | 0.9 µM
Cn1c2ccccc2c2c1cc(C#N)c(=O)n2-c1ccc([N+](=O)[O-])cc1 | - | HeLa | RT-Y188L | luciferase | NNRTI-resistant | 0.0069 µM
Nc1ccn([C@H]2CC[C@@H](CO)O2)c(=O)n1 | - | PBMC | RT-A98G V106I Y181C | - | BCF02 | 0.03 µM
C#C[C@@]1(CO)C=C[C@H](n2cc(C)c(=O)[nH]c2=O)O1 | - | MAGI (CCR5) + MAGI | RT-A62V V75I F77L F116Y Q151M | β-galactosidase | HXB2 | 1.1 µM
Cc1cn([C@H]2C[C@H](N=[N+]=[N-])[C@@H](CO)O2)c(=O)[nH]c1=O | - | C8166 | - | cytopathic effect / syncytia | IIIB | 0.0032 µg/mL
COC(=O)N[C@H](C(=O)N[C@@H](Cc1ccccc1)[C@@H](O)CN(Cc1ccc(-c2ccccn2)cc1)NC(=O)[C@@H](NC(=O)OC)C(C)(C)C)C(C)(C)C | - | MT-4 | L10F M46I I54V V82A | p24 / luminescence | NL4-3 | 0.041 µM
C#Cc1ccc(Nc2nccc(Oc3c(C)cc(-c4cn(CC(=O)Nc5ccc(F)cc5)nn4)cc3C)n2)cc1 | - | MT-4 | Y181C | MTT | IIIB | >1.41 µM
Cc1cc(Br)cc(S(=O)(=O)c2cccc(N)c2C#N)c1 | - | HeLa + HELA CD4+ | RT-V106A Y181C | β-galactosidase | - | 0.49 µM
Cc1c(O)c(=O)ccn1C | - | PBLC | - | XTT / p24 | BaL | <100 µM
C#Cc1ccc(Nc2nccc(Oc3c(C)cc(-c4cn(CC(=O)OC)nn4)cc3C)n2)cc1 | - | MT-4 | - | MTT | IIIB | 2.32 µM
Cc1cn([C@H]2C=C[C@@H](CO)O2)c(=O)[nH]c1=O | - | MAGI (CCR5) + MAGI | RT-K103N | β-galactosidase | HXB2 | 1.2 µM
COC1=C2[C@@H]3Cc4ccc(OC)c(O)c4[C@]2(CCN3)CC(OC(C)=O)C1OC(C)=O | - | MT-4 | - | cytopathic effect / visual reading | IIIB | <7.8 µg/mL
COC(=O)c1cc2c(c(OC)c1-c1ccc(N(C)C)cc1)OCO2 | - | C8166 | SJP-L-5-resistant | fluorescence | IIIB | >608 µM
COC(=O)N[C@H](C(=O)N[C@@H](Cc1ccccc1)[C@@H](O)CN(Cc1ccc(-c2ccccn2)cc1)NC(=O)[C@@H](NC(=O)OC)C(C)(C)C)C(C)(C)C | - | MT-4 | - | p24 / luminescence | NL4-3 | 0.0042 µM
Cc1cn([C@H]2C[C@H](N=[N+]=[N-])[C@@H](CO)O2)c(=O)[nH]c1=O | - | CEM + CEM-SS | RT-Y181C | cytopathic effect / XTT | NL4-3 | 0.01 µM
Cc1cn([C@H]2C=C[C@@H](CO)O2)c(=O)[nH]c1=O | - | MT-2 | D67N/T69N/K70R/K103N/M184V/T215F/K219Q | recombinant virus assay | Clinical isolate | 0.624 µM
O=[N+]([O-])c1ccccc1S(=O)(=O)c1cccc2c1NCCC2 | - | CEM + CEM-SS | - | XTT | IIIB | 3 µM
C[C@H](Cn1cnc2c(N)ncnc21)OCP(=O)(O)O | - | HeLa | RT-M41L V118I M184V | luciferase | Recombinant | 0.5555 µM
CC(C)=CCN1Cc2cc(Cl)cc3[nH]c(=S)n(c23)C[C@@H]1C | - | HT4 + HT4 LacZ-1 | RT-L74V | plaque count | HXB2 | 0.16 µM
C=C(C)[C@@]1(O)[C@H](OC(C)=O)[C@@H]2[C@H](OC(C)=O)[C@@]3(C)O[C@@]4([C@@H]3OC(=O)c3ccccc3)[C@@H](O)[C@@H](C)C[C@H]4[C@@]2(O)[C@H](C)[C@@H]1OC(=O)c1ccccc1 | - | C8166 | - | cytopathic effect / syncytia | IIIB | 71.05 µg/mL
Cc1cn([C@H]2C[C@H](N=[N+]=[N-])[C@@H](CO)O2)c(=O)[nH]c1=O | - | CEM + CEM-SS | RT-D67N K70R Y181C T215Y K219Q | XTT | NL4-3(RT-4XAZT+Y181C) | 0.04 µM
Cc1ccnc2c1NC(=O)c1cccnc1N2C1CC1 | - | CEM + CEM-SS | - | cytopathic effect / XTT | IIIB | 0.1 µM
C#Cc1ccc(Nc2nccc(Oc3c(C)cc(-c4cn(CCC(=O)OC)nn4)cc3C)n2)cc1 | - | MT-4 | K103N | MTT | IIIB | 0.75 µM
CC[C@H](C)[C@H](NC(=O)Cc1ccccn1)C(=O)N[C@@H](Cc1ccccc1)[C@@H](O)[C@H](O)[C@H](Cc1ccccc1)NC(=O)[C@@H](NC(=O)Cc1ccccn1)[C@@H](C)CC | - | MT-2 | - | plaque count / virus yield | RF | <0.9 µg/mL
Cc1ccnc2c1NC(=O)c1cccnc1N2C1CC1 | - | CEM + CEM-SS | RT-A98G V108I | cytopathic effect / XTT | TIBO R82150-resistant (RT A98G V108I) | 0.6 µM
CNc1ccc(Cl)cc1S(=O)(=O)c1ccccc1[N+](=O)[O-] | - | U-937 | - | XTT | IIIB | 0.2 µM
COC(=O)N[C@@H](Cc1c[nH]c2ccccc12)C(=O)NCCCC[C@@H](CO)N(CC(C)C)S(=O)(=O)c1ccc(N)cc1 | - | HEK 293 + 293 Cells | - | luciferase / recombinant virus assay | NL4-3 WT | 0.106 µM
Cc1occc1C(=S)Nc1ccc(Cl)c(/C=N/OC(C)(C)C)c1 | - | CEM + CEM-SS | - | cytopathic effect / XTT | 4xAZT | 0.04 µM
CC(C)(C)NC(=O)[C@@H]1C[C@@H]2CCCC[C@@H]2CN1C[C@@H](O)[C@H](Cc1ccccc1)NC(=O)[C@H](CC(N)=O)NC(=O)c1ccc2ccccc2n1 | - | H9 | - | virus yield | IIIB | 0.001 µg/mL
CC(=O)O[C@@H]1[C@@H]2[C@H]([C@H](O)[C@H](OC(C)=O)/C(C)=C/[C@@]34O[C@@]3(C[C@H](C)[C@@H]4O)C(=O)[C@@H]1C)C2(C)C | - | MT-4 | - | luciferase / luminescence | NL4-3 | >44 µM
CO[P@](=O)(c1cc(C)cc(/C=C/C#N)c1)c1c(C(N)=O)[nH]c2ccc(Cl)c(F)c12 | - | MT-4 | K103N/Y181C | - | BH10 | 0.0035 µM
CCc1c(Sc2ccccn2)n(COCc2ccccc2)c(=O)[nH]c1=O | - | CEM + CEM-SS | RT-Y181C | cytopathic effect / XTT | NL4-3 | 1.25 µM
Cc1cc(O)cc(S(=O)(=O)c2cccc(N)c2C#N)c1 | - | HeLa + HELA CD4+ | RT-V106A | β-galactosidase | - | 0.013 µM
CC(C)=CCOc1cc(NC(=S)c2ccsc2C)ccc1Cl | - | CEM + CEM-SS | - | XTT | IIIB | 0.05 µM
Cc1cn([C@H]2C[C@H](F)[C@@H](CO)O2)c(=O)[nH]c1=O | - | PBMC | - | ELISA | 4718 | 0.005 µM
O=C1CN=C(c2ccc[nH]2)c2cc(Cl)ccc2N1 | - | HUT-78/IIIB/LAI + HUT 78 | - | antigen | IIIB/LAI | >1 µM
C#C[C@]1(CO)O[C@@H](n2cnc3c(N)nc(F)nc32)C[C@@H]1O | - | MT4-GFP | A158T | fluorescence | Clinical isolate | 0.00097 µM
Nc1nc(=O)n([C@@H]2CS[C@H](CO)O2)cc1F | - | HT4 + HT4 LacZ-1 | - | plaque count | HXB2 | 0.15 µM
O=c1[nH]cnc2c1ncn2[C@H]1CC[C@@H](CO)O1 | - | PBMC | RT-A98G V106I Y181C | - | BCF02 | 0.3 µM
C#Cc1ccc(Nc2nccc(Oc3c(C)cc(-c4cn(-c5ccc(C(=O)O)cc5)nn4)cc3C)n2)cc1 | - | MT-4 | Y181C | MTT | IIIB | 0.84 µM
c1ccc(CNCc2ccc(CN3CCCNCCNCCCNCC3)cc2)nc1 | - | MT-4 | AMD3100-resistant | cytopathic effect / MTS | NL4-3 | 2.822 µM
CCCc1cc(=O)oc2c3c(c4c(c12)OC(C)(C)C=C4)O[C@@H](C)[C@H](C)[C@@H]3O | - | CEM + CEM-SS | RT-V179D | XTT | NL4-3 | 0.1 µM
CC(C)CN(C[C@@H](O)[C@H](Cc1ccccc1)NC(=O)O[C@H]1CCOC1)S(=O)(=O)c1ccc(N)cc1 | - | MT-4 | L10F M46I I54V V82A | p24 / luminescence | NL4-3 | 0.4201 µM
Nc1nc(=O)n([C@@H]2CS[C@H](CO)O2)cc1F | - | MT-2 | D67N/T69N/K70R/A98G/M184V/G190S/T215F/K219Q | recombinant virus assay | Clinical isolate | >13.3 µM
COc1ccc(S(=O)(=O)N(CC(C)C)C[C@@H](O)[C@H](Cc2ccccc2)NC(=O)O[C@H]2CO[C@H]3O[C@@H]4OCC[C@@H]4[C@H]32)cc1 | - | MT-4 | - | p24 / luminescence | NL4-3 | 0.0005 µM
COc1cc(C(F)(F)F)cc(S(=O)(=O)c2cccc(N)c2C#N)c1 | - | HeLa + HELA CD4+ | RT-L100I K103N | β-galactosidase | - | 19 µM
Cc1ccnc2c1NC(=O)c1cccnc1N2C1CC1 | - | C8166 | V106M | p24 / ELISA | NL4-3 | 3.14 µM
CC(C)OC(=O)OCOP(=O)(CO[C@H](C)Cn1cnc2c(N)ncnc21)OCOC(=O)OC(C)C | - | TZM-gfp | A114S/M184V/A502V | GFP | NL4-3 | 0.03 µM
C=C1C[C@@]23CCC4=C(C)C(=O)CC[C@@]4(C)[C@@H]2C[C@@H]1[C@@H](O)C3=O | - | MT-4 | - | luciferase / luminescence | NL4-3 | >44 µM
CC(C)(C)NC(=O)[C@@H]1C[C@@H]2CCCC[C@@H]2CN1C[C@@H](O)[C@H](Cc1ccccc1)NC(=O)[C@H](CC(N)=O)NC(=O)c1ccc2ccccc2n1 | - | MT-2 | - | - | RF | 0.0091 µM
Cc1cc(=O)c2ccc(N=C=S)cc2o1 | - | PBMC | - | p24 / ELISA | NL4-3 | 0.16 µM
Cc1cn([C@H]2C[C@H](N=[N+]=[N-])[C@@H](CO)O2)c(=O)[nH]c1=O | - | CEM + CEM-SS | - | cytopathic effect / XTT | IIIB | 0.01 µM
C#Cc1ccc(Nc2nccc(Oc3c(C)cc(-c4cn(Cc5cccc(C(=O)OC)c5)nn4)cc3C)n2)cc1 | - | MT-4 | Y188L | MTT | IIIB | >4.78 µM
CC(C)CN(C[C@@H](O)[C@H](Cc1ccccc1)NC(=O)O[C@H]1CCOC1)S(=O)(=O)c1ccc(N)cc1 | - | MT-4 | - | cytopathic effect / MTT | NL4-3 WT | 0.031 µM
C=C(C)[C@@]1(OC(=O)c2ccccc2)[C@H](OC(C)=O)[C@@H]2[C@H](OC(C)=O)[C@@]3(C)O[C@@]4([C@@H]3OC(=O)c3ccccc3)[C@@H](O)[C@@H](C)C[C@H]4[C@@]2(O)[C@H](C)[C@@H]1OC(C)=O | - | C8166 | - | cytopathic effect / syncytia | IIIB | 11.42 µg/mL
CC(C)OC(=O)OCOP(=O)(CO[C@H](C)Cn1cnc2c(N)ncnc21)OCOC(=O)OC(C)C | 7 d | PBMC | - | XTT / p24 | IIIB | 0.005 µM
C=C(C)[C@@]1(O)[C@H](OC(C)=O)[C@@H]2[C@H](OC(=O)c3ccccc3)[C@@]3(C)O[C@@]4([C@@H]3OC(=O)c3ccccc3)[C@@H](O)[C@@H](C)C[C@H]4[C@@]2(O)[C@H](C)[C@@H]1OC(=O)c1ccccc1 | - | C8166 | - | cytopathic effect / syncytia | IIIB | 9.17 µg/mL
Cc1ccnc2c1NC(=O)c1cccnc1N2C1CC1 | clinical isolate | PBMC | - | cytopathic effect / XTT | CLADE C | 0.05 µM
COc1ccc(S(=O)(=O)N(CC(C)C)C[C@@H](O)[C@H](Cc2ccc(OC)c(Cl)c2)NC(=O)O[C@H]2CO[C@H]3OCC[C@H]32)cc1 | - | PBMC | L10F V32I M46I I54M A71V I84V | p24 / luminescence | NL4-3 | 0.0021 µM
C#Cc1ccc(Nc2nccc(Oc3c(C)cc(-c4cn(Cc5cccc([N+](=O)[O-])c5)nn4)cc3C)n2)cc1 | - | MT-4 | - | MTT | IIIB | 0.075 µM
Cc1ccnc2c1NC(=O)c1cccnc1N2C1CC1 | - | HT4 + HT4 LacZ-1 | RT-Y181C | plaque count | HXB2(181) (RT-Y181C | 15.1 µM
Cc1ccnc2c1NC(=O)c1cccnc1N2C1CC1 | - | PBMC | RT-A98G V106I Y181C | - | BCF02 | 21 µM
C#Cc1ccc(Nc2nccc(Oc3c(C)cc(-c4cn(CCCC(=O)OC)nn4)cc3C)n2)cc1 | - | MT-4 | F227L and V106A | MTT | IIIB | >20.15 µM
Cc1cn([C@H]2C=C[C@@H](CO)O2)c(=O)[nH]c1=O | - | HeLa | - | luciferase | NL4-3 WT | 1.221 µM
CC1(C)OC[C@@]2(C[C@]34CC[C@H]2C[C@H]3[C@]2(C)CC[C@H](O)C(C)(C)[C@H]2CC4)O1 | - | MT-4 | - | luciferase / luminescence | NL4-3 | 34 µM

For reference, 7 entries again:

smiles	setting	cell line	changes	read by	strain or isolate	result
CCCc1cc(=O)oc2c3c(c4c(c12)OC(C)(C)C=C4)O[C@@H](C)[C@H](C)[C@@H]3O	-	CEM + CEM-SS	RT-V179D	XTT	NL4-3	0.1 µM
Cc1cn([C@H]2C[C@H](N=[N+]=[N-])[C@@H](CO)O2)c(=O)[nH]c1=O	-	CEM + CEM-SS	RT-Y181C	cytopathic effect / XTT	NL4-3	0.01 µM
COc1ccc(S(=O)(=O)N(CC(C)C)C[C@@H](O)[C@H](Cc2ccc(OC)c(Cl)c2)NC(=O)O[C@H]2CO[C@H]3OCC[C@H]32)cc1	-	PBMC	L10F V32I M46I I54M A71V I84V	p24 / luminescence	NL4-3	0.0021 µM
Cc1cn([C@H]2C[C@H](N=[N+]=[N-])[C@@H](CO)O2)c(=O)[nH]c1=O	-	CEM + CEM-SS	-	cytopathic effect / XTT	IIIB	0.01 µM
Nc1ccn([C@H]2CC[C@@H](CO)O2)c(=O)n1	-	PBMC	RT-A98G V106I Y181C	-	BCF02	0.03 µM
C#Cc1ccc(Nc2nccc(Oc3c(C)cc(-c4cn(CCC(=O)OC)nn4)cc3C)n2)cc1	-	MT-4	K103N	MTT	IIIB	0.75 µM
C[C@H](Cn1cnc2c(N)ncnc21)OCP(=O)(O)O	-	HeLa	RT-M41L V118I M184V	luciferase	Recombinant	0.5555 µM